Results published in US20230174690A1, “COMPOSITIONS AND METHODS FOR SINGLE-STEP MULTIPURPOSE SURFACE FUNCTIONALIZATION” (Rutgers, The State University of New Jersey, priority 2019, published 2023).

Assay: Modified MicroBCA assay of Cu(I) production from Cu(II)
Conditions: 10 mM compound with CuSO4 5 mM; 37° C., 30 min

In the case of `C#CCOCCOCCNC(=O)[C@@H](N)Cc1ccc(O)c(O)c1` [p-DOPAmide, (S)-2-amino-3-(3,4-dihydroxyphenyl)-N-(2-(2-(prop-2-yn-1-yloxy)ethoxy)ethyl)-propanamide], the “Cu(I) production (violet colour of the Cu(I)-BCA complex)” value is reported as “violet color was formed”.
